A mixed list of measured activities; the numbers were collected in NIAID ChemDB.

All rows: whole-cell or culture tests; agent: Candida albicans

An empty or dashed field is not shown.

compound	strain or isolate	read by	measure	result
CCCCCC12CCC(C(=O)N[C@H]3CCCNC(=O)C4C[C@H](N)CN4C(=O)C(C(C)O)NC(=O)C(CCc4ccc(O)cc4)NC(=O)C4C[C@@H](O)CN4C(=O)C(C(C)O)NC3=O)(CC1)CC2	ATCC 10231		MIC	3.12 µg/mL
c1ccc(C(c2ccc(-n3cccc3)cc2)n2ccnc2)cc1			MIC	6.8 µg/mL
Clc1ccccc1COc1ccc(C(c2ccc(-c3ccccc3)cc2)n2ccnc2)cc1.O=[N+]([O-])O	17 strains		Mean MIC	≥256 µg/mL
CO[C@H]1C[C@@H]2CC[C@@H](C)[C@@](O)(O2)C(=O)C(=O)N2CCCC[C@H]2C(=O)O[C@H]([C@H](C)C[C@@H]2CC[C@@H](C(=O)ON(C)OC)[C@H](OC)C2)CC(=O)[C@H](C)/C=C(\C)[C@@H](O)[C@@H](OC)C(=O)[C@H](C)C[C@H](C)CCCC/C=C/1C	10231		MIC	50 µg/mL
Clc1ccc(COc2ccc(C(c3ccc(-c4ccccc4)cc3)n3ccnc3)cc2)cc1.O=[N+]([O-])O	17 strains		MIC90	≥256 µg/mL
CO[C@H]1C[C@@H]2CC[C@@H](C)[C@@](O)(O2)C(=O)C(=O)N2CCCC[C@H]2C(=O)O[C@H]([C@H](C)C[C@@H]2CC[C@@H](C(=O)ON(C)C)[C@H](OC)C2)CC(=O)[C@H](C)/C=C(\C)[C@@H](O)[C@@H](OC)C(=O)[C@H](C)C[C@H](C)CCCC/C=C/1C	442		MIC	50 µg/mL
COc1ccc(C(Cc2ccc(F)cc2)n2ccnc2)cc1			MIC	23 µg/mL
Nc1[nH]c(=O)ncc1F	40 isolates azole-susceptible		MIC90	0.64 µg/mL
Nn1c(SCC(O)(Cn2cncn2)c2ccc(Cl)cc2Cl)nnc1-c1cccc(Br)c1	PTCC 6027	broth dilution	MIC	>64 µg/mL
CO[C@@H]1C[C@H](C[C@@H](C)[C@@H]2CC(=O)[C@H](C)/C=C(\C)[C@@H](O)[C@@H](OC)C(=O)[C@H](C)C[C@H](C)/C=C/C=C/C=C(\C)[C@H](N(O)C(N)=O)C[C@@H]3CC[C@@H](C)[C@@](O)(O3)C(=O)C(=O)N3CCCC[C@H]3C(=O)O2)CC[C@H]1C(=O)ON(C)O	38247		MIC	100 µg/mL
N#Cc1ccc(-c2c[nH]cc2C(c2ccc(Cl)cc2Cl)n2ccnc2)cc1			MIC	4.3 µg/mL
C[C@H]1[C@H](O)[C@@H](C)/C=C/C=C/C=C/C=C/C=C/C=C/C=C/[C@H](O[C@@H]2O[C@H](C)[C@@H](O)[C@H](N)[C@@H]2O)C[C@@H]2O[C@](O)(C[C@@H](O)C[C@@H](O)CC[C@H](O)[C@@H](O)C[C@@H](O)CC(=O)O[C@H]1C)C[C@H](O)[C@H]2C(=O)O	A28200		MFC99	0.5 µg/mL
CCCCCOc1ccc(-c2ccc(-c3ccc(C(=O)N[C@H]4CCCNC(=O)C5CCCN5C(=O)C(C(C)O)NC(=O)C(CCc5ccc(O)cc5)NC(=O)C5C[C@@H](O)CN5C(=O)C(C(C)O)NC4=O)cc3)cc2)cc1	ATCC 62376		MIC	6.25 µg/mL
Cc1onc(-c2ccccc2Cl)c1C=O			MIC	>50 µg/mL
Nn1c(SCC(O)(Cn2cncn2)c2ccc(F)cc2F)nnc1-c1ccc(O)cc1	IRFC 36	broth dilution	MIC	>64 µg/mL
CCCCCCCCCCOC[N+](C)(C)Cc1cc(N=Nc2ccc(C)cc2)ccc1O			MIC	1051 µM
Cc1ccc(C(c2nccc3ccccc23)n2ccnc2)cc1	44 strains		MIC90	256 µg/mL
CCCCCOc1ccc(-c2ccc(-c3ccc(C(=O)N[C@H]4CCCNC(=O)C5C[C@H](N)CN5C(=O)C(C(C)O)NC(=O)C(Cc5ccccc5)NC(=O)C5C[C@@H](O)CN5C(=O)C(C(C)O)NC4=O)cc3)cc2)cc1	ATCC 10231		MIC	1.56 µg/mL
Nn1c(SCC(O)(Cn2cncn2)c2ccc(Cl)cc2Cl)nnc1-c1ccc(O)cc1	PTCC 6027	broth dilution	MIC	>64 µg/mL
CCCCCOc1ccc(-c2ccc(-c3ccc(C(=O)N[C@H]4CCCNC(=O)C5C[C@H](N)CN5C(=O)C(C(C)O)NC(=O)C(c5ccc(O)cc5)NC(=O)C5CC(O)CN5C(=O)C(C(C)O)NC4=O)cc3)cc2)cc1	ATCC CCH442		MIC	50 µg/mL
Nn1c(SCC(O)(Cn2cncn2)c2ccc(Cl)cc2Cl)nnc1-c1ccc(Cl)cc1	IRFC 36	broth dilution	MIC	>64 µg/mL
Cc1ccc(N=Nc2ccc(O)c(C[N+](C)(C)COC3CCCC3)c2)cc1			MIC	309 µM
Cc1ccc(-c2noc(C)c2C=O)cc1			EC50	43.76 µg/mL
C=CCSS(=O)CC=C	Clinical Isolate 2605	broth dilution	MIC90	6.25 µg/mL
Clc1ccc(C(Cn2ccnc2)OCc2csc3c(Cl)cccc23)c(Cl)c1	16 strains		MIC90	1 µg/mL
CCCCCCCCOc1ccc(N2CCN(c3ccc(C(=O)N[C@H]4CCCNC(=O)C5C[C@H](N)CN5C(=O)C(C(C)O)NC(=O)C(Cc5ccc(C=O)cc5)NC(=O)C5CCCN5C(=O)C(C(C)O)NC4=O)cc3)CC2)cc1	ATCC 62376		MIC	25 µg/mL
Fc1ccc(C(c2ccn(-c3ccc(Cl)cc3)c2)n2ccnc2)cc1			MIC	2.8 µg/mL
O=Cc1cc(-c2ccccc2Br)no1			EC50	29.57 µg/mL
Clc1cccc(Cl)c1COc1ccc(C(c2nccc3ccccc23)n2ccnc2)cc1	16 strains		Mean MIC	≥256 µg/mL
Cc1ccc(-c2nnc(SCC(O)(Cn3cncn3)c3ccc(F)cc3F)n2N)cc1	IRFC 36	broth dilution	MIC	>64 µg/mL
CCCCCCOC[N+](C)(C)Cc1cc(N=Nc2ccc(C)cc2)ccc1O			MBC	38 µM
Cn1cc(-c2ccc(-n3cccc3)cc2)c(C(c2ccc(Cl)cc2Cl)n2ccnc2)c1			MIC	0.62 µg/mL
C[N+](C)(COCC1CCCCC1)Cc1cc(N=Nc2ccc(Cl)cc2)ccc1O			MBC	137 µM
Nn1c(SCC(O)(Cn2cncn2)c2ccc(F)cc2F)nnc1-c1ccccc1	PTCC 6027	broth dilution	MIC	>64 µg/mL
Clc1ccc(-c2c[nH]cc2C(c2ccc(Cl)cc2Cl)n2ccnc2)cc1			MIC	0.92 µg/mL
COc1ccc(-c2nnc(SCC(O)(Cn3cncn3)c3ccc(F)cc3F)n2N)cc1	IRFC 36	broth dilution	MIC	>64 µg/mL
CO[C@H]1C[C@@H]2CC[C@@H](C)[C@@](O)(O2)C(=O)C(=O)N2CCCC[C@H]2C(=O)O[C@H]([C@H](C)C[C@@H]2CC[C@H](c3nn[nH]n3)[C@H](OC)C2)CC(=O)[C@H](C)/C=C(\C)[C@@H](O)[C@@H](OC)C(=O)[C@H](C)C[C@H](C)CCCC/C=C/1C	62376		MIC	>100 µg/mL
O=Cc1cc(-c2ccc([N+](=O)[O-])cc2)no1			EC50	43.18 µg/mL
Cc1ccc(C(C)C)cc1	ATCC 10231		MLC	>10 µg/mL
Clc1ccc(COC(Cn2ccnc2)c2ccc(Cl)cc2Cl)c(Cl)c1	16 strains		MIC90	2 µg/mL
Clc1ccc(COc2ccc(C(c3nccc4ccccc34)n3ccnc3)cc2)c(Cl)c1	16 strains		MIC90	≥256 µg/mL
Nn1c(SCC(O)(Cn2cncn2)c2ccc(Cl)cc2Cl)nnc1-c1ccc(F)cc1	ATCC 18804	broth dilution	MIC	>64 µg/mL
Cn1cc(-c2ccc(Cl)cc2)c(C(c2ccccc2)n2ccnc2)c1			MIC	0.025 µg/mL
CC(=O)N1CCN(c2ccc(OC[C@H]3CO[C@](Cn4ccnc4)(c4ccc(Cl)cc4Cl)O3)cc2)CC1	40 isolates azole-susceptible		MIC50	0.01 µg/mL
CCC(C)n1ncn(-c2ccc(N3CCN(c4ccc(OC[C@H]5CO[C@](Cn6cncn6)(c6ccc(Cl)cc6Cl)O5)cc4)CC3)cc2)c1=O	Fluconazole-resistant		MIC50	1 µg/mL
O=Cc1cc(-c2ccccc2Cl)no1			MIC	50 µg/mL
CCCCCOc1ccc(-c2ccc(-c3ccc(C(=O)N[C@H]4C[C@@H](O)[C@@H](O)NC(=O)[C@@H]5[C@@H](O)[C@@H](C)CN5C(=O)[C@H]([C@H](C)O)NC(=O)[C@H]([C@H](O)[C@@H](O)c5ccc(O)cc5)NC(=O)[C@@H]5C[C@@H](O)CN5C(=O)[C@H]([C@H](C)O)NC4=O)cc3)cc2)cc1	10 strains (fluconazole- itraconazole-susceptible)		MFC90	0.5 µg/mL

MIC50, MIC90 and the like: level of inhibition, or share of isolates inhibited. ECn: concentration that inhibits the pathogen or its effect by n%. Lines come from different laboratories, so protocols vary.